# According to paper PMC8105722 (The Journal of Experimental Medicine, 2021):
# Tests used:
# Assay in all cases: purified protein
# [1] = system: C=C(O[C@@H]1C=C(C(=O)O)C=C[C@H]1N)C(=O)O; conditions: pH 8.5; 25.0 °C
# C[C@@H](N)C(=O)O = conditions: pH 8.5; 25.0 °C
# N[C@H](CCC(=O)O)C(=O)O = conditions: pH 8.5
substance,measurement,setting,value
(Mycobacterium tuberculosis H37Rv),Km,[1],400 µM
same,Km,C[C@@H](N)C(=O)O,7300 ± 1100 µM
same,Km,N[C@H](CCC(=O)O)C(=O)O,240 ± 50 µM
